A mixed list of measured activities; the numbers were collected in NIAID ChemDB.

Common to all: tests in culture; agent: Hepatitis C virus; measure: EC50

Conditions beyond the fields shown may differ between rows.

structure | cell line | strain or isolate | result
Nc1nc(N2CCOCC2)c2nc(-c3ccoc3)cnc2n1 | Huh7 | - | 1–10 µM
CCC[C@H](NC(=O)[C@@H]1[C@@H](C2CCCCC2)CCN1C(=O)[C@H](NC(=O)[C@H](NC(=O)c1cnccn1)C1CCCCC1)C(C)(C)C)C(=O)C(=O)NC1CC1 | - | Hepatitis C virus | 0.76 µM
CCCC(NC(=O)[C@@H]1C[C@@H](OC(=O)N2CCc3ccccc3C2)CN1C(=O)[C@@H](NC(=O)[C@@H](NC(=O)CCCCn1cnnn1)C(C)C)C(C)C)C(=O)C(=O)NC1CC1 | - | - | >50 µM
O=c1[nH]c(=O)n2c3c1nnn3CC1OC2[C@H](O)[C@@H]1O | Huh7 | - | 23.7 µM
Nc1nc(N2CCOCC2)c2nc(-c3cccnc3)cnc2n1 | Huh7 | - | 0.3–1 µM
CCNc1ncnc2ccc(-c3ccc(F)cc3)cc12 | Huh7 | - | 0.3–1 µM
C[C@@]1(O)[C@H](O)[C@@H](CO)O[C@H]1n1ccc(N)nc1=O | Huh7 | - | 3.7 µg/mL
NC(=O)[C@@H](Cc1ccc(O)cc1)NC(=O)c1ccc2c(c1)nc(-c1ccoc1)n2C1CCCCC1 | Huh7 | - | ~31 µM
CC(C)Oc1nc(N)nc2ncc(-c3ccc(F)cc3)nc12 | Huh7 | - | 1–10 µM
COc1cc(Cc2cnc(/N=C3\C(=O)N(CN4CCN(c5ccc([N+](=O)[O-])cc5)CC4)c4ccc(C)cc43)nc2N)cc(OC)c1OC | Huh7 | - | <50 µg/mL
Nc1nc(OCC2CC2)c2nc(-c3ccc(F)cc3)cnc2n1 | Huh7 | - | 1–10 µM
COC(=O)NC[C@H](C(=O)N1CCCC1c1ncc(-c2ccc(-c3ccc(-c4cnc(C5CCCN5C(=O)[C@@H](NC(=O)OC)C(C)C)[nH]4)cc3)cc2)[nH]1)C(C)C | - | HCV4a-23 | 0.000013 µM
CC(C)(C)NC(=O)N[C@H](C(=O)N1C[C@H]2[C@@H]([C@H]1C(=O)NC(CC1CCC1)C(=O)C(N)=O)C2(C)C)C(C)(C)C | Huh7 | 1b | 1.1 µM
COc1cc(Cc2cnc(/N=C3\C(=O)N(CN4CCN(Cc5ccccc5)CC4)c4ccc(F)cc43)nc2N)cc(OC)c1OC | Huh7 | - | <50 µg/mL
C=C(C)COc1ccc([C@H]2C3=C(CC(C)(C)CS3(=O)=O)Nc3c(O)cccc3N2C(=O)Cc2ccccc2C)c(F)c1 | - | 1b | 14.9 µM
CC(=O)Nc1ccc(-c2ccc3nc(N)nc(N4CCCCC4)c3c2)cc1 | Huh7 | - | 1–10 µM
CC(C)[C@H](NC(=O)NC1CC1)C(=O)N1CC[C@H]2[C@H]1C1(CCC1)C(=O)N2C(=O)C1CC1 | - | - | 8.5 µM
C=C[C@@H]1C[C@]1(NC(=O)C1C[C@@H](Oc2cc(-c3csc(NC4CCCC4)n3)nc3cc(OC)ccc23)CN1C(=O)[C@@H](NC(=O)OC1CCCCC1)C(C)(C)C)C(=O)O | Huh7 | - | <0.5 µM
CCCC(NC(=O)[C@@H]1C[C@@H](OC(=O)N2CCc3ccccc3C2)CN1C(=O)[C@H](NC(=O)[C@H](NC(=O)c1cnccn1)C(C)C)C(C)C)C(=O)C(=O)N[C@@H](C)c1ccccc1 | Huh7 | - | 0.31 µM
Nc1nc(=O)n([C@H]2O[C@@H](CO)C[C@@H]2O)cc1F | Huh7 | - | 42 µM
CC/C=N/N(c1ccc(OCCCCCCCC)cc1)c1nc(-c2cccnc2)cs1 | - | - | <1 µM
COc1cc(Cc2cnc(/N=C3\C(=O)N(CN4CCN(c5ccc(Cl)cc5)CC4)c4ccc(C)cc43)nc2N)cc(OC)c1OC | Huh7 | - | <50 µg/mL
COc1cccc(N2CCN(CN3C(=O)/C(=N\c4ncc(Cc5cc(OC)c(OC)c(OC)c5)c(N)n4)c4cc(F)ccc43)CC2)c1 | Huh7 | - | <50 µg/mL
CCC[C@H](NC(=O)[C@@H]1[C@@H](CC)CCN1C(=O)[C@H](NC(=O)[C@H](NC(=O)c1cnccn1)C1CCCCC1)C(C)(C)C)C(=O)C(=O)NC1CC1 | - | Hepatitis C virus | 0.45 µM
CCn1cc(C(=O)O)c(=O)c2c(F)c(N3CCN(CN4C(=O)/C(=N\c5ncc(Cc6cc(OC)c(OC)c(OC)c6)c(N)n5)c5cc(C)ccc54)C(C)C3)c(F)cc21 | Huh7 | - | <50 µg/mL
CCC[C@H](NC(=O)[C@@H]1[C@@H](C(C)(C)C)CCN1C(=O)[C@H](NC(=O)[C@H](NC(=O)c1cnccn1)C1CCCCC1)C(C)(C)C)C(=O)C(=O)NC1CC1 | - | Hepatitis C virus | >3 µM
CCn1cc(C(=O)O)c(=O)c2cc(F)c(N3CCN(CN4C(=O)/C(=N\c5ncc(Cc6cc(OC)c(OC)c(OC)c6)c(N)n5)c5cc(F)ccc54)C(C)C3)c(F)c21 | Huh7 | - | <50 µg/mL
C=CC1C[C@]1(NC(=O)[C@@H]1C[C@@H](Oc2cc(-c3ccccc3)nc3cc(OC)ccc23)CN1C(=O)[C@@H](NC(=O)OC(C)(C)C)C(C)(C)C)C(=O)NS(=O)(=O)c1cccs1 | Huh7 | BMS | <0.1 µM
Nc1nc(=O)n([C@@H]2O[C@H](CO)C[C@H]2O)cc1I | Huh7 | - | 30.2 µM
CCC[C@H](NC(=O)[C@@H]1CC2CCCCC2N1C(=O)[C@@H](NC(=O)[C@@H](NC(=O)c1cnccn1)C1CCCCC1)C(C)(C)C)C(=O)C(=O)NC1CC1 | - | - | 1.09 µM
CCOC(=O)Cc1cn(Cc2c(CC)sc3ccc(Cl)cc23)c2cc(-c3cc([N+](=O)[O-])cc([N+](=O)[O-])c3)ccc12 | - | - | >50 µM
COc1cc(Cc2cnc(/N=C3\C(=O)N(CN4CCN(c5ccc(Cl)cc5)CC4)c4ccc(F)cc43)nc2N)cc(OC)c1OC | Huh7 | - | <50 µg/mL
C=CC1C[C@]1(NC(=O)[C@@H]1C[C@@H](Oc2cc(-c3ccccc3)nc3cc(OC)ccc23)CN1C(=O)[C@@H](NC(=O)OC(C)(C)C)C(C)(C)C)C(=O)NS(=O)(=O)C1CCS(=O)(=O)C1 | Huh7 | BMS | 0.1–1 µM
CCC[C@H](NC(=O)[C@@H]1[C@@H](C(C)C)CCN1C(=O)[C@H](NC(=O)[C@H](NC(=O)c1cnccn1)C1CCCCC1)C(C)(C)C)C(=O)C(=O)NC1CC1 | - | Hepatitis C virus | 0.91 µM
CCCC(NC(=O)[C@@H]1C2CCCC2CN1C(=O)[C@@H](NC(=O)[C@@H](NC(=O)CCCCc1nn[nH]n1)C(C)C)C(C)C)C(=O)C(=O)N[C@@H](C)c1ccccc1 | - | - | >50 µM
C=C[C@@H]1C[C@]1(NC(=O)C1C[C@@H](Oc2cc(-c3csc(NC4CCCC4)n3)nc3cc(OC)ccc23)CN1C(=O)[C@@H](NC(=O)OC1CCCC1)C(C)(C)C)C(=O)O | Huh7 | - | <0.5 µM
CC(=O)Nc1ccc(-c2ccc3nc(N)nc(N4CCN(C(C)=O)CC4)c3c2)cc1 | Huh7 | - | 1–10 µM
Nc1nc(N2CCOCC2)c2nc(-c3ccccc3Cl)cnc2n1 | Huh7 | - | 0.3–1 µM
CCC(NC(=O)[C@@H]1C[C@@H](OCc2ccccc2)CN1C(=O)[C@H](NC(=O)[C@H](NC(=O)c1cnccn1)C(C)C)C(C)C)C(=O)C(=O)N[C@@H](C)c1ccccc1 | Huh7 | - | 4.8 µM
CCCCCN(C)c1ccc(N(C(=O)COC(C)=O)c2nc(-c3cccnc3)cs2)cc1C(F)(F)F | - | - | <1 µM
CC(C)[C@H](NC(=O)N[C@H](C(=O)N1CC[C@H]2[C@H]1C1(CCC1)C(=O)N2C(=O)C1CC1)C(C)C)C(=O)N1CCN(c2ncccn2)CC1 | - | - | 0.3 µM
COc1cc(Cc2cnc(/N=C3\C(=O)N(CN4CCCCC4)c4ccc(C)cc43)nc2N)cc(OC)c1OC | Huh7 | - | <50 µg/mL
CCCCCOc1ccc(N(C(C)=O)c2nc(-c3cccnc3)cs2)cc1F | - | - | <1 µM
CCCCNc1nc(=O)n2c3c1nnn3C[C@H]1OC2[C@H](O)[C@@H]1O | Huh7 | - | >100 µM
C=CC1=C(C)C2=NC1=CC1=NC(=CC3=C(C)C4=C(O)CC(=C5NC(=C2)[C@@H](C)[C@@H]5CCC(=O)O)C4=N3)C(CC)=C1C | Huh7.5 | J6/JFH1-P47 | 0.2 µg/mL
COc1cc(Cc2cnc(/N=C3\C(=O)N(CN4CCCC4)c4ccc(C)cc43)nc2N)cc(OC)c1OC | Huh7 | - | <50 µg/mL
N#CCn1c(=O)c2nnn3c2n(c1=O)C1O[C@H](C3)[C@@H](O)[C@H]1O | Huh7 | - | >100 µM
COc1ccc(-c2ccc3nc(N)nc(N4CCOCC4)c3c2)cc1OC | Huh7 | - | <0.3 µM
CC(C)[C@H](NC(=O)NCC1CC1)C(=O)N1CC[C@H]2[C@H]1C1(CCC1)C(=O)N2C(=O)C1CC1 | - | - | 2.8 µM
C=CC1C[C@]1(NC(=O)[C@@H]1C[C@@H](Oc2cc(-c3ccccc3)nc3cc(OC)ccc23)CN1C(=O)[C@@H](NC(=O)OC(C)(C)C)C(C)(C)C)C(=O)NS(=O)(=O)c1nc(NC(C)=O)sc1C | Huh7 | BMS | 1–10 µM
COc1ccc(-c2ccc3nc(N)nc(Nc4cccc(Br)c4)c3c2)cc1OC | Huh7 | - | <0.3 µM
O=c1[nH]cnc2c1c(-c1ccsc1)cn2[C@@H]1O[C@H](CO)[C@@H](O)[C@H]1O | Huh7 | 1b | 4.35 µM
CCCCCCCCOc1ccc(N(C(N)=O)c2nc(-c3ccncc3)cs2)cc1 | - | - | >10 µM
CCCOc1nc(N)nc2ncc(-c3ccc(F)cc3)nc12 | Huh7 | - | 1–10 µM
C[C@@H](NC(=O)OCc1ccccc1)C(=O)Nc1ccc(C2SC(=Nc3cccc(F)c3)N(Cc3ccco3)C2=O)cc1 | - | - | 1 µM
CCCNC(=O)N[C@H](C(=O)N1CC[C@H]2[C@H]1C1(CCC1)C(=O)N2C(=O)C1CC1)C(C)C | - | - | 1.6 µM
C=CC1C[C@]1(NC(=O)[C@@H]1C[C@@H](Oc2cc(-c3ccccc3)nc3cc(OC)ccc23)CN1C(=O)[C@@H](NC(=O)OC(C)(C)C)C(C)(C)C)C(=O)NS(=O)(=O)c1ccc(Sc2ccc(Cl)cc2)s1 | Huh7 | BMS | 1–10 µM
CC(C)[C@H](NC(=O)N[C@H](C(=O)N1CC[C@H]2[C@H]1C1(CCC1)C(=O)N2C(=O)C1CC1)C(C)C)C(=O)OC(C)(C)C | - | - | 0.48 µM
CCOC(=O)n1cc(CNCCN2CCN(C)CC2)c(-c2ccccc2C)n1 | Huh7 | - | >20 µM
CCCCCCCC(=O)CCCCCC/C=C/[C@H](C(=O)N[C@@H](Cc1ccc(OCCC(C)C)cc1)C(=O)O)[C@@](O)(CC(=O)O)C(=O)O | - | - | 0.0019 µM
C=C(C)COc1ccc(C2Nc3cccc(O)c3NC3=C2S(=O)(=O)CC(C)(C)C3)c(F)c1F | - | 1b | 14.9 µM
C=CC1C[C@]1(NC(=O)[C@@H]1C[C@@H](Oc2cc(-c3ccccc3)nc3cc(OC)ccc23)CN1C(=O)[C@@H](NC(=O)OC(C)(C)C)C(C)(C)C)C(=O)NS(=O)(=O)c1ccc([N+](=O)[O-])s1 | Huh7 | BMS | 0.1–1 µM
COc1cc(Cc2cnc(/N=C3\C(=O)N(CN4CCC(C)CC4)c4ccc(F)cc43)nc2N)cc(OC)c1OC | Huh7 | - | <50 µg/mL
COc1cc(Cc2cnc(/N=C3\C(=O)N(CN4CCN(c5ccccc5)CC4)c4ccc(C)cc43)nc2N)cc(OC)c1OC | Huh7 | - | <50 µg/mL
CCOc1nc(N)nc2ncc(-c3ccc(Cl)cc3)nc12 | Huh7 | - | 0.3–1 µM
C=CC1C[C@]1(NC(=O)[C@@H]1C[C@@H](Oc2cc(-c3ccccc3)nc3cc(OC)ccc23)CN1C(=O)[C@@H](NC(=O)OC(C)(C)C)C(C)(C)C)C(=O)NS(=O)(=O)c1ccc(Br)s1 | Huh7 | BMS | 0.1–1 µM

Repeating the first 4 entries:

structure	cell line	strain or isolate	result
Nc1nc(N2CCOCC2)c2nc(-c3ccoc3)cnc2n1	Huh7	-	1–10 µM
CCC[C@H](NC(=O)[C@@H]1[C@@H](C2CCCCC2)CCN1C(=O)[C@H](NC(=O)[C@H](NC(=O)c1cnccn1)C1CCCCC1)C(C)(C)C)C(=O)C(=O)NC1CC1	-	Hepatitis C virus	0.76 µM
CCCC(NC(=O)[C@@H]1C[C@@H](OC(=O)N2CCc3ccccc3C2)CN1C(=O)[C@@H](NC(=O)[C@@H](NC(=O)CCCCn1cnnn1)C(C)C)C(C)C)C(=O)C(=O)NC1CC1	-	-	>50 µM
O=c1[nH]c(=O)n2c3c1nnn3CC1OC2[C@H](O)[C@@H]1O	Huh7	-	23.7 µM

Two numbers with a dash give a range or band. An empty or dashed field is not shown. ECn: concentration that inhibits the pathogen or its effect by n%.